Experimental data taken from patent publication US20190359693A1.

B1: MD2642 (Fc fusion)
chain: EVQLVESGGGLVQPGGSLRLSCAVSISIFDIYAMDWYRQAPGKQRDLVATSFRDGSTNYADSVKGRFTISRDNAKNTLYLQMNSLKPEDTAVYLCHVSLYRDPLGVAGGMGVYWGKGALVTVSSGGGGSGGGGSEVQLVESGGGLVQAGGSLKLSCAASGRTYAMGWFRQAPGKEREFVAHINALGTRTYYSDSVKGRFTISRDNAKNTEYLEMNNLKPEDTAVYYCTAQGQWRAAPVAVAAEYEFWGQGTQVTVSS[gap - human IgG1 Fc]GGGGSGGGGSEVQLVESGGGLVQPGGSLRLSCAATGFTLENKAIGWFRQTPGSEREGVLCISKSGSWTYYTDSMRGRFTISRDNAENTVYLQMDSLKPEDTAVYYCATTTAGGGLCWDGTTFSRLASSWGQGTQVTVSSGGGGSGGGGSEVQLVESGGGLVQPGGSLKLSCAASGFTFSTSWMYWLRQAPGKGLEWVSVINTDGGTYYADSVKDRFTISRDNAKDTLYLQMSSLKSEDTAVYYCAKDWGGPEPTRGQGTQVTVSS
B2: MD3609 (Fc fusion)
chain: EVQLVESGGGLVQPGGSLRLSCAVSISIFDIYAMDWYRQAPGKQRDLVATSFRDGSTNYADSVKGRFTISRDNAKNTLYLQMNSLKPEDTAVYLCHVSLYRDPLGVAGGMGVYWGKGALVTVSSGGGGSGGGGSEVQLVESGGGLVQAGGSLKLSCAASGRTYAMGWFRQAPGKEREFVAHINALGTRTYYSDSVKGRFTISRDNAKNTEYLEMNNLKPEDTAVYYCTAQGQWRAAPVAVAAEYEFWGQGTQVTVSSGGGGSGGGGSEVQLVESGGGLVQPGGSLRLSCAATGFTLENKAIGWFRQTPGSEREGVLCISKSGSWTYYTDSMRGRFTISRDNAENTVYLQMDSLKPEDTAVYYCATTTAGGGLCWDGTTFSRLASSWGQGTQVTVSSGGGGSGGGGSEVQLVESGGGLVQPGGSLKLSCAASGFTFSTSWMYWLRQAPGKGLEWVSVINTDGGTYYADSVKDRFTISRDNAKDTLYLQMSSLKSEDTAVYYCAKDWGGPEPTRGQGTQVTVSSAAA[gap - human IgG1 Fc]

Molecular target: hemagglutinin (HA) of influenza A/Mississippi/03/01 274H (H1N1) (influenza A virus)
Assay: cell-based or functional assay

Row | Binder | Average neutralization titers [nM]
1 | B1 | 5.3
2 | B2 | 6.5
